Columns and labels:
[1] = molecular target: Rs4231 Spike, full-length, on the cell surface (Bat SARS-like coronavirus Rs4231, UniProt A0A2D1PXA9, strain); settings: one partner purified
[2] = molecular target: Rf1/2004 Spike, full-length, on the cell surface (Bat SARS CoV Rf1/2004, UniProt Q0QDZ0, strain); settings: one partner purified
[3] = molecular target: RacCS203 Spike, full-length, on the cell surface (Bat coronavirus RacCS203, strain); settings: one partner purified
[4] = molecular target: Rs4231 RBD (recombinant receptor binding domain of Spike) (Bat SARS-like coronavirus Rs4231, UniProt A0A2D1PXA9, strain); settings: both partners purified
[5] = molecular target: RacCS203 RBD (recombinant receptor binding domain of Spike) (Bat coronavirus RacCS203, strain); settings: both partners purified

Measured: binding result

B1: VA14_26 IgG (antibody, V domains shown)
VH: QVQLQQWGAGLLKPSDTLSLTCGISGGPFSGYYWSWIRQPPGKGLEWLGEINHSGITTYNPSLKSRGTISVDTSKRQISLKLASVTAADTAVYYCARFAYGDYGWDYSSDMDVWGKGTTVTVSS
VL: DIQLTQSPSTLSASVGDRVTITCRASQSISTWLAWHQQIPGKAPKLLIYRASTLQSGVPSRFSGSGSGTEFTLTISSLQPDDFATYYCQQYYSVRTFGQGTKVDIK
notes: copies: 2 + 2
binds: [1] | [2] | [3] | [4]

B2: V1WT_41 IgG (antibody, V domains shown)
VH: QVQLQESGPGLVKPSETVSVTCTVSGGSITRSNYYWGWIRQPPGKGLEWIGSIFYNGNTNYNPSLKSRLTISVDTSKNQFSLKLSSVTAADTAVYYCARTAPYYYDRSGYYQKEEYFQRWGQGTLVTVSS
VL: EIVMTQSPSTLSASVGDRVTITCRASQSISTWLAWYQQKPGKAPNLLIYQASSLESGVPSRFSGSGSGTEFTLTISSLQPDDFATYYCQQYNNYPRTFGQGTKLEIK
notes: copies: 2 + 2
binds: [5] | [1] | [2] | [3] | [4]

B3: V1WT_06 IgG (antibody, V domains shown)
VH: EVQLVQSGAEVKKPGASVKVSCKASGYTFSSHGISWVRQAPGQGLEWMGWISTYNGNTNSAQNLQGRVTMTADTSTSTAYMELRSLRSDDTAVYYCARGPWGYCSGTSCYYWTPDNPAYSYHGMDVWGQGTTVTVSS
VL: not shown
notes: copies: 2 + 2
binds: [1] | [2] | [3] | [4]

From PMC13630248 (PLOS Biology, 2026)
